Test results published in paper PMC6137059, “Crystal structure of TcpK in complex with oriT DNA of the antibiotic resistance plasmid pCW3” (2018).

Target: TcpK (Clostridium perfringens (plasmid pCW3))
Assay: AUC

Substance TcpK (natural protein) has a stoichiometry N of 2.
